Measured values from several laboratories, pooled; numbers as filed in NIAID ChemDB.

Common to all: toxicity to cultured cells; cells: MT-4; read-out: CC50

Blank or dashed fields: not listed here. CCn: concentration that lowers growth or viability of the cells by n%. Lines come from different laboratories, so protocols vary.

smiles,read by,setting,result
C=C1CN(S(=O)(=O)c2ccc(C)cc2)CCCN(Cc2ccncc2)CCCN(S(=O)(=O)c2ccc(C)cc2)C1,,,32.4 µM
CC(=O)N[C@@H](Cc1ccc(O)cc1)C(=O)N[C@H]1CSSC[C@@H](C(=O)O)NC(=O)[C@H](CCCCN)NC(=O)[C@H](CCCCN)NC1=O,MTT,2 d,>2.5 µM
Nc1ncnc2c1nnn2[C@H]1C[C@H](O)[C@@H](CO)O1,,,1.2 µM
C=C1CN(S(=O)(=O)c2ccc(C)cc2)CCCN(C(C)C)CCCN(S(=O)(=O)c2ccc(C)cc2)C1,,,38.9 µM
N#Cc1cc(Cl)cc(Oc2cc(OCc3[nH]nc4nc(N)ccc34)cc(F)c2Cl)c1,microscopy,,>20 µM
O=C(CC1Nc2ccccc2S(=O)(=O)n2cccc21)Oc1ccc(Cl)cc1,,,185 µM
O=C(c1ccc(Cl)cc1)C(O)NC(=S)Nc1ccccn1,,,>400 µM
Cc1c(CC#N)c(=O)oc2c3c(ccc12)OC(C)(C)[C@H](OC(=O)C12CCC(C)(C(=O)O1)C2(C)C)[C@@H]3OC(=O)C12CCC(C)(C(=O)O1)C2(C)C,MTT,,>74.07 µM
CN1CC(=O)N2c3ccccc3S(=O)(=O)n3cccc3C2C1=O,,,302 µM
Cc1ccnc2c1NC(=O)c1cccnc1N2C1CC1,MTT,,0.82 µg/mL
Nc1nccc2c1nnn2[C@H]1C[C@H](O)[C@@H](CO)O1,,,>396 µM
Cc1cc2ncc(=O)n(CC(O)CO)c2cc1C,MTT,,10.95 µg/mL
O=C(O)CN(CCN(CC(=O)O)Cc1cnc2c(O)cccc2c1)CC(=O)O,MTT,,>50 µM
Nc1nccc2c1ncn2[C@H]1C[C@H](O)[C@@H](CO)O1,,,145 µM
N#Cc1cc(Cl)cc(Oc2cc(Cl)cc(OCC(=O)NCC3CCS(=O)(=O)C3)c2)c1,microscopy,,>20 µM
O=C1C=C[C@@H](n2ccc(=O)n(C(=O)c3ccccc3)c2=O)CC1,MTT,,0.5 µg/mL
Cc1c(COC(N)=O)c(=O)oc2c3c(ccc12)OC(C)(C)[C@H](OC(=O)C12CCC(C)(C(=O)O1)C2(C)C)[C@@H]3OC(=O)C12CCC(C)(C(=O)O1)C2(C)C,MTT,,44.05 µM
COc1ccc(NC(=S)Nc2nc(NCCc3ccc(OC)c(OC)c3)nc(Oc3cc(=O)oc4ccccc34)n2)cc1,MTT,,56.45 µg/mL
CC1(C)Oc2ccc3cc(CC#N)c(=O)oc3c2[C@@H](OC(=O)C23CCC(C)(C(=O)O2)C3(C)C)[C@H]1OC(=O)C12CCC(C)(C(=O)O1)C2(C)C,MTT,,>73.42 µM
O=S1(=O)c2ccccc2-n2cnnc2-c2cccn21,,,>367 µM
CCOC(=O)CNc1nc(NC(=O)Nc2ccccc2C)nc(Oc2cc(=O)oc3ccccc23)n1,MTT,,75.53 µg/mL
O=C1C=C[C@H](n2ccc(=O)n(C(=O)c3ccccc3)c2=O)CC1,MTT,,10.1 µg/mL
C=C1CN(S(=O)(=O)c2ccc(C)cc2)CCCN(CCC)CCCN(S(=O)(=O)c2ccc(C)cc2)C1,,,36.4 µM
OC[C@H]1O[C@@H](n2nnc3ccnc(Cl)c32)C[C@@H]1O,,,>368 µM
C=C1CN(S(=O)(=O)c2ccc(C)cc2)CCCN(C(C)=O)CCCN(S(=O)(=O)c2ccc(C)cc2)C1,,,>75 µM
N#Cc1cc(Cl)cc(Oc2cc(OCc3cn(-c4ccccc4)nn3)ccc2Cl)c1,microscopy,,>20 µM
CC(=O)N[C@H]1CSSC[C@@H](C(=O)N[C@@H](Cc2ccc(O)cc2)C(=O)O)NC(=O)[C@H](CCCCN)NC(=O)[C@H](CC(N)=O)NC1=O,MTT,2 d,>2.5 µM
COc1cc2c(c3oc(=O)c(COC(C)=O)c(C)c13)[C@@H](OC(=O)C13CCC(C)(C(=O)O1)C3(C)C)[C@@H](OC(=O)C13CCC(C)(C(=O)O1)C3(C)C)C(C)(C)O2,MTT,,>67.75 µM
Cc1cc(C)c(S(=O)(=O)Oc2ccc3cccc(S(=O)(=O)O)c3c2)c(C)c1S(=O)(=O)Oc1ccc2cccc(S(=O)(=O)O)c2c1,,,>500 µM
C=C1CN(S(C)(=O)=O)CCCN(Cc2ccccc2)CCCN(S(C)(=O)=O)C1,,,>75 µM
Nc1nccc2nnn([C@@H]3O[C@H](CO)[C@@H](O)[C@H]3O)c12,,,>398 µM
N#Cc1cc(Cl)cc(Oc2cc(Cl)cc(OCc3nc4cccc(Cl)c4s3)c2)c1,microscopy,,>20 µM
Nc1nccc2nn([C@H]3C[C@H](O)[C@@H](CO)O3)nc12,,,>396 µM
COc1ccc(CCNc2nc(NC(=S)Nc3cccc(Cl)c3)nc(Oc3cc(=O)oc4ccccc34)n2)cc1OC,MTT,,16.78 µg/mL
COc1cc2c(c3oc(=O)c(C)c(C)c13)[C@@H](OC(=O)C13CCC(C)(C(=O)O1)C3(C)C)[C@@H](OC(=O)C13CCC(C)(C(=O)O1)C3(C)C)C(C)(C)O2,MTT,,>73.53 µM
CCOC(=O)C12CC(=O)N1c1ccccc1N(C)n1cccc12,,,>369 µM
O=C1C=CN([C@H]2C=C[C@H](O)CC2)C(=O)C1C(=O)c1ccccc1,MTT,,>25 µg/mL
O=C(c1ccccc1Cl)C(O)NC(=S)Nc1ccccn1,,,>400 µM
Nc1nccc2c1nnn2[C@@H]1O[C@H](CO)[C@@H](O)[C@H]1O,,,>398 µM
CCOC(=O)C1c2cccn2N(C)c2ccccc2N1C(=O)CCl,,,6.3 µM
OC[C@H]1O[C@@H](n2nnc3c(Cl)nccc32)[C@H](O)[C@@H]1O,,,359 µM
COC(=O)CC1Nc2ccccc2S(=O)(=O)n2cccc21,,,220 µM
O=C(c1ccccc1)n1c(=O)ccn([C@H]2C=CC3(CC2)O[C@H](c2ccccc2)[C@@H](c2ccccc2)O3)c1=O,MTT,,>25 µg/mL
Cc1ccc(C(=O)N2c3ccccc3S(=O)(=O)n3cccc3C2CC(=O)O)cc1,,,>326 µM
CCOC(=O)CNc1nc(Nc2ccccc2OC)nc(Oc2cc(=O)oc3ccccc23)n1,MTT,,72.3 µg/mL
O=S1(=O)c2ccccc2NC(CO)c2cccn21,,,200 µM
Nc1ncnc2c1ncn2[C@H]1CC[C@@H](CO)O1,,,>500 µM

Again, the opening 3 rows:

smiles | read by | setting | result
C=C1CN(S(=O)(=O)c2ccc(C)cc2)CCCN(Cc2ccncc2)CCCN(S(=O)(=O)c2ccc(C)cc2)C1 |  |  | 32.4 µM
CC(=O)N[C@@H](Cc1ccc(O)cc1)C(=O)N[C@H]1CSSC[C@@H](C(=O)O)NC(=O)[C@H](CCCCN)NC(=O)[C@H](CCCCN)NC1=O | MTT | 2 d | >2.5 µM
Nc1ncnc2c1nnn2[C@H]1C[C@H](O)[C@@H](CO)O1 |  |  | 1.2 µM